The text below walks through data of publication PMC5920107, “Self-homodimerization of an actinoporin by disulfide bridging reveals implications for their structure and pore formation” (Scientific Reports, 2018).

The data set concerns the molecule itself.

B1: sticholysin I Trp111 to Cys mutant (StI W111C) (natural protein)
chain: SELAGTIIDGASLTFQVLDKVLGELGKVSRKIAVGIDNESGGTWTALNAYFRSGTTDVILPEVVPNTKALLYSGRKSSGPVATGAVAAFAYYMSNGNTLGVMFSVPFDYNCYSNWWDVKIYPGKRRADQGMYEDMYYGNPYRGDNGWYQKNLGYGLRMKGIMTSAGEAKMQIKISR
For orientation: stoichiometry N means the number of molecules, sites or subunits per partner or assembly. For the protein B1, the “stoichiometry N” value turned out to be 2.
